Experimental data reported in PubChem BioAssay AID1918969 (ICCB-Longwood Screening Facility, Harvard Medical School, 2023).
Several values for one entry are separate records, joined by “and”; a condition that tells them apart may be missing. Equal entries are not always repeated. The list shows a part of the results, in another mix than the full data. Activity calls are given as the source filed them. Cut-off read from the data, not from the text of the source: active = inhibition above about 27% (passing the limit was not always enough); inactive = the rest.

tested on: HCMV UL50-UL53 nuclear egress complex (human cytomegalovirus); test: HCMV nuclear egress complex disruptors – biochemical, HTRF (AID 1918969); conditions: HTRF UL50-UL53 interaction, normalized percent inhibition; hits give high values; concentration not given here

Row | Compound | inhibition
1 | COc1cc(-n2cnnn2)ccc1-n1cnnn1 | inactive: 5%
2 | CN(C(=O)Cc1ccc(Cl)c(Cl)c1)[C@@H]1CC[C@]2(CCCO2)C[C@H]1N1CCCC1 | inactive: -22.3%
3 | O=C(OC1CN2CCC1CC2)c1ccc(Cl)cc1 (stereo unspecified) | inactive: -21.6%
4 | CN(C(=O)Cc1ccccc1)[C@@H]1CC[C@]2(CCCO2)C[C@H]1N1CCCC1 | inactive: -10.4%
5 | CCOP1(=S)c2c(C)nn(CCC#N)c2N=C(c2ccc(F)cc2)N1C (stereo unspecified) | inactive: 0.4%
6 | CC1(C)Nc2ccccc2OP1(=O)c1ccccc1 (stereo unspecified) | inactive: -12.5%
7 | O=P1(Nc2nc3ccc(Cl)cc3s2)COc2ccccc2OC1 | inactive: -37.1%
8 | NC(=O)Nc1ccc([As](=O)(O)O)cc1 | inactive: -7.7%
9 | NC(=O)COC(=O)C1(O)c2ccccc2-c2ccccc21 | inactive: -29.8%
10 | CC1(C)COP(=S)(N(C2=NCCC2)c2ccccc2)OC1 | inactive: 12.1%
11 | CCSP(=O)(c1ccccc1)c1ccccc1 | inactive: 2.5%
12 | Cc1nn(CCC#N)c2c1P(=O)(Nc1ccccc1Cl)N(C)C(c1ccc(F)cc1)=N2 (stereo unspecified) | inactive: -9.3%
13 | CP(=O)(N1CCOCC1)N1CCOCC1 | inactive: 5.1%
14 | Cc1ccc(C(=O)OC2CN3CCC2CC3)cc1 (stereo unspecified) | inactive: -27%
15 | Cc1nn(-c2ccccc2)c2c1P(=O)(N1CCOCC1)N(C)C(c1ccccc1)=N2 (stereo unspecified) | inactive: -34.1%
16 | CN(C(=O)Cc1ccc(Cl)c(Cl)c1)[C@@H]1CCCC[C@H]1N1CCCC1 | inactive: 15.7%
17 | Nc1nonc1-c1no[n+]([O-])c1-c1nonc1N | inactive: 15.1%
18 | CCn1cccc/c1=N\P1(=S)OCCO1 | inactive: 3.1%
19 | CN(C)CCS | inactive: -55.3%

Row | Compound | inhibition
20 | CCOC(=O)c1ccc(NP(C)(=O)Oc2ccc(OC)cc2)cc1 (stereo unspecified) | inactive: -5%
21 | Cc1cccc(NP(C)(=O)Oc2ccccc2)c1 (stereo unspecified) | inactive: -13.7%
22 | CP(=O)(NC(=O)Nc1ccccc1)Oc1ccccc1 (stereo unspecified) | inactive: -4.9%
23 | COP1(=S)c2c(C)nn(-c3ccccc3)c2N=C(c2ccccc2)N1C1CC1 (stereo unspecified) | inactive: -33.3%
24 | COc1ccccc1OP(C)(=O)Nc1ccccc1 (stereo unspecified) | inactive: 2.1%
25 | CCN1C(=O)N(c2ccccc2)P(=S)(OC)c2cc3c(cc21)OCCO3 (stereo unspecified) | inactive: -9%
26 | CP(=O)(Nc1ccc(Cl)cc1)Oc1ccccc1 (stereo unspecified) | inactive: -2.8%
27 | O=C(O)CCC(=O)N=S(c1ccccc1)c1ccccc1.O=[N+]([O-])c1cc([N+](=O)[O-])c(O)c([N+](=O)[O-])c1 | inactive: -87.3%
28 | COP1(=S)N=C2c3ccccc3CN2c2cc(N(C)C)ccc21 (stereo unspecified) | inactive: -23.9%
29 | Cc1cc(C)cc(OP(C)(=O)NCc2ccccc2)c1 (stereo unspecified) | inactive: -0.2%
30 | Nc1nonc1OCCOc1nonc1N | inactive: -10%
31 | O=C(O)C1(O)c2ccccc2-c2ccccc21 | inactive: -24.1%
32 | CN(C)P1(=O)Nc2ccccc2S1 (stereo unspecified) | inactive: -0.8%
33 | O=P1(Nc2nccs2)CC=CC1 | inactive: 4.9%
34 | O=P(O)(O)F | inactive: -46%
35 | CC1=C2[N-][C@@H](C(CC(N)=O)[C@@]2(C)CCC(=O)NCC(C)OP(=O)([O-])OC2C(CO)OC(n3cnc4cc(C)c(C)cc43)C2O)[C@]2(C)N=C(C(C)=C3N=C(C=C4N=C1C(CCC(N)=O)C4(C)C)C(CCC(N)=O)[C@]3(C)CC(N)=O)C(CCC(N)=O)[C@]2(C)CC(N)=O.[C-]#N.[Co+3] (stereo partly specified) | active: 68.7%
36 | CCOP(OCC)N1CCOCC1 | inactive: 8.8%
37 | O=C(O[C@H]1CN2CCC1CC2)C1NCc2ccccc2[C@@H]1c1ccccc1 (stereo partly specified) | inactive: -25.4%
38 | O=C(COC(=O)C(O)(c1ccccc1)c1ccccc1)N1CCCCC1 | inactive: -13.8%

Row | Compound | inhibition
39 | CCc1nc2c(n1)c1c(non1O)c1c2no[n+]1[O-] | inactive: -69.4%
40 | CCc1ccc(OP(C)(=O)Nc2cccnc2)cc1 (stereo unspecified) | inactive: -26.8%
41 | Cc1ccccc1NP(C)(=O)Nc1ccccc1C | inactive: -29.4%
42 | CC(=O)OC1CN2CCC1C(c1ccccc1)C2 (stereo unspecified) | inactive: 5.1%
43 | O=P(Nc1nccs1)(c1ccccc1)c1ccccc1 | inactive: -26.6%
44 | C/C1=C2N=C(/C=C3N=C(/C(C)=C4\[N-][C@@](C)([C@@H]5N=C1[C@](C)(CCC(=O)NC[C@@H](C)OP(=O)([O-])O[C@H]1[C@@H](O)[C@@H](n6cnc7cc(C)c(C)cc76)O[C@@H]1CO)[C@H]5CC(N)=O)[C@@](C)(CC(N)=O)[C@@H]4CCC(N)=O)[C@@](C)(CC(N)=O)[C@@H]\3CCC(N)=O)C(C)(C)[C@@H]/2CCC(N)=O.[C-]#N.[Co+3] | inactive: 12.8%
45 | CC(=O)OC1(C#N)CN2CCC1CC2 (stereo unspecified) | inactive: -3.1%
46 | Nc1nonc1OCc1nonc1COc1nonc1N | inactive: -29%
47 | C=CCN1CCN(CCOC(=O)C(O)(c2ccccc2)c2ccccc2)CC1 | inactive: -10.1%
48 | O=C(OC1/C(=C/c2ccccc2F)N2CCC1CC2)c1ccccc1 (stereo unspecified) | inactive: 2.8%
49 | CC1CCC(C(C)C)C(OP(=O)(Nc2nccs2)c2ccccc2)C1 (stereo unspecified) | inactive: -8%
50 | O=C(OC1CN2CCC1CC2)c1ccccc1 (stereo unspecified) | inactive: -27.1% and inactive: -17.9%
51 | CN(C(=O)Cc1ccc(Cl)c(Cl)c1)[C@@H]1CCCC[C@@H]1N1CCCC1 | inactive: -3.2%
52 | COC(=O)c1cc2c(s1)N=C(c1ccccc1)N(C)P2(=O)N1CCOCC1 (stereo unspecified) | inactive: 0.8%
53 | O=C(OCC1CN(Cc2ccccc2)CCO1)C(O)(c1ccccc1)c1ccccc1 (stereo unspecified) | inactive: -6.9%
54 | O=C(OCCN1CCN(CCOCc2ccccc2)CC1)C(O)(c1ccccc1)c1ccccc1 | inactive: -0.7%
55 | Cc1cc(NC2=NC3C(C(=O)N(C)C(=O)N3C)N2C)n(-c2ccccc2)n1 (stereo unspecified) | inactive: -6.8%
56 | O=P1(Nc2nncs2)C=C(c2ccccc2)SC(c2ccccc2)=C1 | inactive: -23.6%
